Test results from US10869933B2, “Oligomer-phenothiazine conjugates” (Nektar Therapeutics, priority 2009, dated 2020).

Protein sequences, listed by entry. Tags and fused reporters are not part of them. Lines headed by an entry give the natural chain unless they say otherwise; changes in a name come on top.
UniProt Q9H3N8: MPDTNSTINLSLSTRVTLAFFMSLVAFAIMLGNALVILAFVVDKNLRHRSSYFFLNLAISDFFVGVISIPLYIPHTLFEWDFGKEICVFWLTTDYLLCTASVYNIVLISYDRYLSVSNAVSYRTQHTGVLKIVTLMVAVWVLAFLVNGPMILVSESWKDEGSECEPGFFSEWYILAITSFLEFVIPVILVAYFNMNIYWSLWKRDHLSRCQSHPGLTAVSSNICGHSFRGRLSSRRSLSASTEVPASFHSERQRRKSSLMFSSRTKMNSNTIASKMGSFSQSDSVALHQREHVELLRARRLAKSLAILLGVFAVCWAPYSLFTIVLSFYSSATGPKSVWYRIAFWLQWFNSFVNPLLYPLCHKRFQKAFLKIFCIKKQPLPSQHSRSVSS

Molecular target: T1, recombinant human H4 histamine receptor (Homo sapiens, UniProt Q9H3N8)
T1 construct: expressed in transfected cells; host or cells: CHO cells (membranes)
Test: Histamine H4 receptor radioligand binding
Details: [3H]Histamine 8.2 nM, human rCHO-K1 cell membranes; up to 30 μM

## mPEG9-N-promethazine
  Ki: > 30 µM
